Results of unrelated studies side by side (data: NIAID ChemDB).

Common to all: whole-cell or culture tests; species: Cytomegalovirus; read by: cytopathic effect; measure: EC50

ECn: concentration that inhibits the pathogen or its effect by n%. Blank or dashed fields: not listed here. Neighbouring rows are from separate reports.

structure	cell line	strain	result
Cc1ccc(C)c(CS(=O)(=O)c2cccc(C)[n+]2[O-])c1	HEL	-	>50 µg/mL
CC1(C)[C@@H](CO)CC[C@@]1(C)Cn1cc(Br)c(=O)[nH]c1=O	HEL	AD169	>50 µg/mL
C[C@H](Cn1cnc2c(=O)[nH]c(N)nc21)OCP(=O)(O)O	HEL	AD169	71 µM
Cc1ccc(C)c(C(CCCCCCBr)S(=O)(=O)c2cccc[n+]2[O-])c1	HEL	-	>20 µg/mL
C[C@@]1(O)[C@@H](CO)O[C@@H](n2cnc3c(N)ncnc32)[C@@H]1O	VERO	AD169	>5 µg/mL
CCC(c1cc(C)ccc1C)S(=O)(=O)c1cccc[n+]1[O-]	HEL	-	0.4 µg/mL
Nc1nc(Cl)c2ncn([C@H]3CO[C@@H](CO)C3)c2n1	HEL	AD169	>40 µg/mL
N#C/C(=C/c1c(Cl)cccc1Cl)S(=O)(=O)c1cccc[n+]1[O-]	HEL	-	>20 µg/mL
CC1(C)[C@@H](CO)CC[C@@]1(C)Cn1nnc2c(=O)[nH]cnc21	HEL	AD169	>50 µg/mL
Nc1ncnc2c1ncn2[C@@H]1C=C(CO)[C@@H](O)[C@H]1O	HEL	DAVIS	0.4 µg/mL
Nc1nc2c(ncn2C[C@@H](CO)OCP(=O)(O)O)c(=O)[nH]1	HEL	AD169	0.66 µM
CC1(C)[C@@H](CO)CC[C@@]1(C)Cn1ccc(=O)[nH]c1=O	HEL	AD169	>50 µg/mL
[O-][n+]1ccccc1SCc1ccccc1	HEL	-	>50 µg/mL
Nc1nc(F)nc2c1ncn2[C@@H]1C=C(CO)[C@@H](O)[C@H]1O	HEL	DAVIS	>5 µg/mL
CCC(c1cc(C)ccc1C)S(=O)(=O)c1c(C)ccc[n+]1[O-]	HEL	-	0.83 µg/mL
OC[C@H]1O[C@@H](c2cc(C(O)CBr)c(F)cc2F)C[C@@H]1O	HEL	AD169	>20 µg/mL
CCOc1ccccc1CS(=O)(=O)c1cccc[n+]1[O-]	HEL	-	>20 µg/mL
Nc1ncnc2c1ncn2C[C@@H](CO)OCP(=O)(O)O	HEL	AD169	0.3 µg/mL
O=[N+]([O-])c1ccc(SCc2ccccc2)nc1	HEL	-	>5 µg/mL
CC(C)CS[C@@H]1C=C[C@H](n2cnc3c(N)ncnc32)C1	HEL	AD169	16 µg/mL
C=C[C@H](O)C1=C[C@@H](n2cnc3c(N)ncnc32)[C@H](O)[C@@H]1O	HEL	AD169	>50 µg/mL
CC1(C)[C@@H](CO)CC[C@@]1(C)Cn1cnc2c(=O)[nH]cnc21	HEL	DAVIS	>50 µg/mL
Nc1ncnc2c1ncn2C[C@H](CF)OCP(=O)(O)O	HEL	AD169	>300 µM
Nc1nc2c(ncn2[C@H]2CO[C@@H](CO)C2)c(=O)[nH]1	HEL	AD169	>40 µg/mL
O=c1[nH]c(=O)n([C@H]2C[C@H](O)[C@@H](CO)O2)cc1/C=C/Br	HEL	AD169	200 µg/mL
Nc1ncnc2c1ncn2C[C@@H](CF)OCP(=O)(O)O	HEL	AD169	>300 µM
N#Cc1ccccc1CS(=O)(=O)c1cccc[n+]1[O-]	HEL	-	>5 µg/mL
C[C@@H](Cn1cnc2c(=O)[nH]c(N)nc21)OCP(=O)(O)O	HEL	AD169	30 µM
Cc1cn([C@@H]2O[C@H](CO)[C@](O)(C(F)(F)F)[C@H]2O)c(=O)[nH]c1=O	VERO	AD169	>50 µg/mL
O=S(=O)(Cc1ccccc1)c1c(Cl)ccc[n+]1[O-]	HEL	-	>5 µg/mL
CC[C@@H](O)C1=C[C@@H](n2cnc3c(N)ncnc32)[C@H](O)[C@@H]1O	HEL	DAVIS	>50 µg/mL
Cc1ccc(C)c(C(C)S(=O)(=O)c2c(C)ccc[n+]2[O-])c1	HEL	-	4.1 µg/mL
OC[C@H]1O[C@@H](c2cc(C(O)C(I)I)c(F)cc2F)C[C@@H]1O	HEL	DAVIS	>200 µg/mL

2 of the rows above, restated:

structure	cell line	strain	result
CC1(C)[C@@H](CO)CC[C@@]1(C)Cn1cnc2c(=O)[nH]cnc21	HEL	DAVIS	>50 µg/mL
CC1(C)[C@@H](CO)CC[C@@]1(C)Cn1nnc2c(=O)[nH]cnc21	HEL	AD169	>50 µg/mL